This data set has as its system SARS-CoV-2 infection (COVID-19). The following applies: human, in vivo.

Where a name gives a salt, the structure may show the parent alone.

Safety and tolerability data for one molecule are collected here from patent US11376232B2, “Vidofludimus for use in the treatment or prevention of viral diseases” (Immunic AG, priority 2020, dated 2022).

For the molecule `COc1cccc(-c2ccc(NC(=O)C3=C(C(=O)O)CCC3)c(F)c2)c1` [IMU-838, 1-cyclopentene-1-carboxylic acid, 2-(((3-fluoro-3′-methoxy(1,1′-biphenyl)-4-yl)amino)carbonyl)-, calcium salt (2:1)], the safety and tolerability entry was “safe and well-tolerated”.
